From article PMC8070189, “Native Structure-Based Peptides as Potential Protein–Protein Interaction Inhibitors of SARS-CoV-2 Spike Protein and Human ACE2 Receptor” (Molecules, 2021)

Experiments:
[1] = target: T1, recombinant domain RBD of the SARS-CoV-2 subunit S1 (res Arg319-Phe541) (SARS-CoV-2, UniProt P0DTC2 319-541); test: MST; conditions: both partners purified
[2] = target: T1, recombinant domain RBD of the …; test: MST; conditions: both partners purified; remark: listed apart in the source

Row | Binder | Kd [1] | Kd [2]
1 | EDGFYQ (also called 37-EDGFYQ-42) [pep1e] | 1900 nM | –
2 | DKGNHEAED (also called 30-DKGNHEAED-38) [pep1c] | 280 nM | –
3 | MYEEFKAED (also called negative control peptide) [MYEEFKAED peptide] | – | 550000 ± 200000 nM
